Experimental findings from patent publication US6831086B1, “Process for the inactivation of viruses with the aid of acridine derivatives” (ZLB Behring GmbH, priority 1994, dated 2004) are described below.

Read-outs that look alike come from different tables or passages of the source.

In one assay the test system is PI3 virus. Put plainly: Inactivation of PI3 virus, infectiousness titration. To be noted: 2 hours. It counts as cell-based, Bovine parainfluenza 3 virus.
In a further assay the test system is BPV. Put plainly: Inactivation of BPV, infectiousness titration. The class given is cell-based, Bovine parvovirus. The settings on record: for Titer reduction: Horse serum + BPV, Acriflavine 0.001 mg/ml; for Virus titer found: BPV.
A further assay has as its system PPV. Put plainly: Inactivation of PPV, infectiousness titration. The class given is cell-based, Porcine parvovirus. To be noted: Acriflavine 0.001 mg/ml, 37° C.
In a further assay the test system is IBRV. Put plainly: Inactivation of IBRV, infectiousness titration. It counts as cell-based, Infectious bovine rhinotracheitis virus.
The subject of another assay is BVDV. Put plainly: Inactivation of BVDV, infectiousness titration. The settings on record: for Treatment titer: Acriflavine 0.001 mg/ml; for Inactivation of BVDV, in words: Table 3, 37° C. The class given is cell-based, Bovine viral diarrhoea virus.
The test system of the next assay is CPV. Put plainly: Inactivation of CPV in protein solutions, infectiousness titration. It counts as cell-based, Canine parvovirus. To be noted: Acriflavine 0.001 mg/ml, 37° C.

Turning to “3,6-diamino-10-methylacridinium, chloride and 3,6-acridineidiamine [Acriflavine]”, the Virus inactivation in the assay on PI3 virus (PI3V, Acriflavine 0.001 mg/ml, 37° C., EME medium) came out at 2.4 log10/ml. Further, the “Inactivation of PI3V, in words” value in the assay with PI3 virus (Table 3, 37° C.) is given as “inactivated”. Further, the Titer reduction with BPV (37° C., 0 h) is reported as 0 log10/ml; in the assay with BPV (37° C., 1 h), “≧3.7 log10/ml”; in the assay with BPV (37° C., 2 h), “≧3.6 log10/ml”. For the same substance, the Treatment titer in the assay with PPV (Beriplex + PPV, 0 h) was 4.8 log10/ml; in the assay with PPV (Beriplex + PPV, 1 h), 2.0 log10/ml; in the assay with PPV (Beriplex + PPV, 2 h) it was “≦1.5 log10/ml”; in the assay on PPV (Haemate + PPV, 0 h), 5.5 log10/ml; with PPV (Haemate + PPV, 1 h), 3.3 log10/ml; with PPV (Haemate + PPV, 2 h) it was 1.9 log10/ml. Further, the Treatment titer with PPV (Venimmun + PPV, 0 h) was 4.0 log10/ml; in the assay with PPV (Venimmun + PPV, 1 h), “≦1.5 log10/ml”; with PPV (Venimmun + PPV, 2 h) it was “≦1.5 log10/ml”; in the assay with BVDV (Beriate + BVDV, 37° C., 0 h), 5.0 log10/ml; in the assay on BVDV (Beriate + BVDV, 37° C., 1 h), “≦1.5 log10/ml”; with BVDV (Beriate + BVDV, 37° C., 2 h), “≦1.5 log10/ml”. Moreover, the Treatment titer in the assay with BVDV (Horse serum + BVDV, 37° C., 0 h) was 5.0 log10/ml; with BVDV (Horse serum + BVDV, 37° C., 1 h), “≦1.5 log10/ml”; with BVDV (Horse serum + BVDV, 37° C., 2 h) it was “≦1.5 log10/ml”; in the assay on BVDV (Venimmun + BVDV, 37° C., 0 h) it was 6.4 log10/ml; with BVDV (Venimmun + BVDV, 37° C., 1 h), 4.5 log10/ml; in the assay on BVDV (Venimmun + BVDV, 37° C., 2 h), 1.9 log10/ml. Moreover, the Treatment titer in the assay on CPV (FCS + CPV, 0 h) is on record as 6.6 log10/ml; with CPV (FCS + CPV, 1 h) it was 4.9 log10/ml; in the assay with CPV (FCS + CPV, 2 h) it was 4.0 log10/ml; in the assay on CPV (Venimmun + CPV, 0 h) it was 6.6 log10/ml; in the assay with CPV (Venimmun + CPV, 1 h), 4.8 log10/ml; in the assay with CPV (Venimmun + CPV, 2 h), 3.9 log10/ml. Further, the “Inactivation of IBRV, in words” value in the assay on IBRV is listed as “inactivated”. For the same substance, the Virus titer found with IBRV (37° C., 2 hours) was 1.8 log10/ml. For the same substance, in the assay on BVDV (2 hours), the “Inactivation of BVDV, in words” value was “inactivated”.

Regarding Benzalkonium chloride [BACI], the Virus titer found in the assay with BPV (BACI 0.01 mg/ml, 37° C., 2 hours, EME medium) is listed as 5.9 log10/ml; in the assay with BPV (BACI 0.01 mg/ml, 1 hour, 45° C.), 5.2 log10/ml; in the assay on BPV (BACI 0.01 mg/ml, 2 hours, 45° C.), 4.6 log10/ml; in the assay with BPV (BACI 0.05 mg/ml, 1 hour, 45° C.), 5.2 log10/ml; in the assay with BPV (BACI 0.05 mg/ml, 2 hours, 45° C.), 4.6 log10/ml. In the assay on IBRV (Table 3, 37° C., 2 hours), the “Inactivation of IBRV, in words” value is given as “inactivated”. In the assay with BVDV (BVDV, BACI 0.01 mg/ml, 37° C., 2 hours, EME medium), the Virus inactivation is reported as 3.9 log10/ml. Further, the “Inactivation of BVDV, in words” value in the assay on BVDV (2 hours) is “inactivated”.
